Data as given in PubChem BioAssay AID1224833 (University of Georgia, 2016).

Test: 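Human genes whose knock-down alters rotavirus replication in monkey cells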 (primary screen)
Cell system: monkey MA104 kidney cells
Reagents: siRNA pool against human genes, 50 nM
Timing: 48 h knock-down before infection; read 24 h after infection
Conditions: infection with rotavirus strain RV3 two days after transfection; infectious dose for this stage not given
Measured: 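Rotavirus antigen per well by fluorescent immunoassay, normalised to non-targeting control wells on each plate and given as a standard z-score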
Reading the numbers: z-score vs non-targeting control: higher = more rotavirus replication than with non-targeting control
Call rule: In these data the active calls have z-score vs non-targeting control at about -1 or lower, or at about 1 or higher
Meaning of the calls: active = z-score beyond 1 either way; inactive = z-score within 1 of zero
The deposit covers about 12,000 reagents; shown is a part drawn at random. About 5,600 of all reagents (46%) count as active. 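Active calls cover z-scores past 1 in both directions, so they include lowered as well as raised rotavirus replication.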 Entries without a mark were called inactive. Reagent sequences are not shown.

Knock-down of MATCAP2 resulted in: z-score vs non-targeting control 0.257. Depletion of FOXRED1 resulted in: z-score vs non-targeting control 1.59 (active). CPNE2 showed z-score vs non-targeting control -2.06 (active). Against RAB9B, the entry reads z-score vs non-targeting control 0.708. Depletion of MRPS12 came out at: z-score vs non-targeting control -0.119. SEC16B showed z-score vs non-targeting control -0.392.

Knock-down of NOLC1 came out at: z-score vs non-targeting control -0.14. After knock-down of HADH the results were z-score vs non-targeting control -0.835. COLEC11 showed z-score vs non-targeting control -0.156. Against ARRDC1-AS1, the entry reads z-score vs non-targeting control 0.156. PHB1 showed z-score vs non-targeting control 1.29 (active). With knock-down of OR13C4 the results were z-score vs non-targeting control -0.977.

BCKDHA scored z-score vs non-targeting control -0.673. With knock-down of ZNF446, the record shows z-score vs non-targeting control -1.71 (active). After knock-down of SYNGR2, the screen gave z-score vs non-targeting control -1.43 (active). ACTN1 gave z-score vs non-targeting control 1.32 (active). After knock-down of TCP11L1, the record shows z-score vs non-targeting control -0.926. Knock-down of HEXD gave: z-score vs non-targeting control 2.26 (active).

After knock-down of LNPK, the screen gave z-score vs non-targeting control -1.39 (active).

2 entries from above, ordered by “z-score vs non-targeting control”, lowest first.
OR13C4 → z-score vs non-targeting control: -0.977
BCKDHA → z-score vs non-targeting control: -0.673
